Measured values from several laboratories, pooled; numbers as filed in NIAID ChemDB.

Shared fields: tests in culture; organism: Staphylococcus aureus

A number after MIC or MFC names an inhibition level or a share of isolates. Zone: diameter of growth inhibition. Blank or dashed fields: not listed here. Two numbers with a dash give a range or band. Rows are shuffled and stem from different studies.

| structure | tested at | strain | endpoint | method | value |
|---|---|---|---|---|---|
| CC(C)(C)n1cc(C(=O)O)c(=O)c2cc(F)c(N3C[C@H]4C[C@@H]3CN4)nc21 | - | 30 strains (methicillin-susceptible) | MIC90 | - | 0.25 µg/mL |
| CO/N=C1\CN(c2nc3c(cc2F)c(=O)c(C(=O)O)cn3C2CC2)CC1CN | - | 9 isolates (methicillin-susceptible) | MIC90 | - | 0.25 µg/mL |
| NC(=O)CNc1cc2c(cc1F)c(=O)c(C(=O)O)cn2C1CC1 | - | ATCC 6538P | MIC | - | >100 µg/mL |
| C[C@H]1COc2c(N3CCN(C)CC3)c(F)cc3c(=O)c(C(=O)O)cn1c23 | - | Methicillin-resistant | MIC90 | - | 0.5–8 µg/mL |
| O=C1O[C@@H](CNc2ccon2)CN1c1ccc(N2CCOCC2)c(F)c1 | - | 004 (methicillin quinolone-resistant) | MIC | - | 1 µg/mL |
| CCCCCCCCCCCC[N+](C)(C)COCC | - | ATCC 6538 | MBC | - | 9.76 µM |
| CC[C@H]1OC(=O)[C@@](C)(F)C(=O)[C@H](C)[C@@H](O[C@@H]2O[C@H](C)C[C@H](N(C)C)[C@H]2O)[C@@]2(C)C[C@@H](C)C(=NC(C)=O)[C@H](C)[C@@H](OC/C(=N\OCc3ccc(-n4cccn4)nc3)CO2)[C@]1(C)O | - | 25 strains | MIC90 | - | 32 µg/mL |
| CC[C@H]1OC(=O)[C@H](C)C(=O)[C@H](C)[C@@H](O[C@@H]2O[C@H](C)C[C@H](N(C)C)[C@H]2O)[C@@]2(C)C[C@@H](C)C(=NC(C)=O)[C@H](C)C(OC/C(=N\OCC#Cc3cccc(N)n3)CO2)[C@]1(C)O | - | 25 strains | MIC50 | - | 4 µg/mL |
| CCCCCCCCCCCC[N+](C)(C)COC(C)CCC | - | ATCC33592 | MBC | - | 14.3 µM |
| O=C(CO)N[C@H]1CCN(c2ccc(N3C[C@H](CNc4ccon4)OC3=O)cc2F)C1 | - | 122 (novobiocin-resistant) | MIC | - | 2 µg/mL |
| C=CCCCCCC(CCCCBr)CCCC(=O)NCCC=C | 100 µg/disc | NCIM 2079 | zone | agar diffusion | 20 mm |
| CCCCCCCCCCCC[N+](C)(C)COCC(CC)CC | - | ATCC 6538 | MBC | - | 13.7 µM |
| O=C(O)c1cn(C2CC2)c2cc(NCCCNC3CCCCC3)c(F)cc2c1=O | - | ATCC 6538P | MIC | - | 50 µg/mL |
| CC[C@H]1OC(=O)[C@H](C)C(=O)[C@H](C)[C@@H](O[C@@H]2O[C@H](C)C[C@H](N(C)C)[C@H]2O)[C@@]2(C)C[C@@H](C)C(=NC(C)=O)[C@H](C)[C@@H](OC/C(=N\OCc3ccc(-n4cccn4)nc3)CO2)[C@]1(C)O | - | 25 strains | MIC90 | - | 32 µg/mL |
| COCCN(CCOC)c1cc2c(cc1F)c(=O)c(C(=O)O)cn2C1CC1 | - | ATCC 6538P | MIC | - | >100 µg/mL |
| Cc1cn(-c2ccc(N3C[C@H](COc4ccon4)OC3=O)cc2F)cn1 | - | 078 (oxford) | MIC | - | 1 µg/mL |
| NCCNc1cc2c(cc1F)c(=O)c(C(=O)O)cn2-c1ccc(F)cc1F | - | ATCC 6538P | MIC | - | 0.78 µg/mL |
| CNc1c(F)cc2c(=O)c(C(=O)O)cn(-c3cc(N)c(F)cc3F)c2c1C | - | 27 isolates (methicillin-resistant) | Mean MIC | - | 0.009 µg/mL |
| CNC(=O)N[C@H]1CCN(c2ccc(N3C[C@H](CNc4ccon4)OC3=O)cc2F)C1 | - | 004 (methicillin quinolone-resistant) | MIC | - | 0.5 µg/mL |
| CCCCCCCCCCCC[N+](C)(C)CSCCCC | - | ATCC33592 | MBC | - | 14.2 µM |
| CC(CO)Nc1cc2c(cc1F)c(=O)c(C(=O)O)cn2C1CC1 | - | ATCC 5278 (methicillin-resistant) | MIC | - | 12.5 µg/mL |
| CCCC[C@H](CC(=O)NO)C(=O)N1CCC[C@H]1C(=O)NC | - | 25 strains | MIC90 | - | 8 µg/mL |
| Cc1c(N)c(F)cc2c(=O)c(C(=O)O)cn(-c3cc(N)c(F)cc3F)c12 | - | 27 isolates | MIC50 | - | 0.008 µg/mL |
| O=C1O[C@@H](COc2ccon2)CN1c1ccc(N2CC(O)C2)c(F)c1 | - | 004 (methicillin quinolone-resistant) | MIC | - | 16 µg/mL |
| C[C@H]1NCc2cc(-c3ccc4c(=O)c(C(=O)O)cn(C5CC5)c4c3OC(F)F)ccc21 | - | A29030 (methicillin-resistant) | MBC | - | 0.06 µg/mL |
| CCCCCCCCCCOC[N+](C)(C)CCCCCCCC | - | ATCC 6538 | MBC | - | 27.5 µM |
| CC(C)OCCCNc1cc2c(cc1F)c(=O)c(C(=O)O)cn2C1CC1 | - | ATCC 6538P | MIC | - | >100 µg/mL |
| O=C1O[C@@H](COc2ccon2)CN1c1ccc(N2CC[C@H](O)C2)c(F)c1 | - | 122 (novobiocin-resistant) | MIC | - | 4 µg/mL |
| CCCCCCCCCCCC[N+](C)(C)COC1CCCCCC1 | - | ATCC 6538 | MBC | - | 26.6 µM |
| CC(C)C[C@@H]1NC(=O)CNC(=O)[C@@H]2CCCN2C(=O)[C@H](CC(N)=O)NC(=O)[C@H](C)NC(=O)[C@H](Cc2ccc(O)cc2)NC(=O)[C@H]2CCCC2C1=O | 12.5 µg/mL | - | zone | - | 10 mm |
| CC(C)(C)n1cc(C(=O)O)c(=O)c2cc(F)c(N3C[C@H]4C[C@@H]3CN4)nc21 | - | 30 strains (methicillin-resistant) | MIC50 | - | 0.5 µg/mL |
| CC(C)(O)CCCCNc1cc2c(cc1F)c(=O)c(C(=O)O)cn2C1CC1 | - | ATCC 6538P | MIC | - | >100 µg/mL |

Repeating the final 2 entries:

structure	tested at	strain	endpoint	method	value
CC(C)(C)n1cc(C(=O)O)c(=O)c2cc(F)c(N3C[C@H]4C[C@@H]3CN4)nc21	-	30 strains (methicillin-resistant)	MIC50	-	0.5 µg/mL
CC(C)(O)CCCCNc1cc2c(cc1F)c(=O)c(C(=O)O)cn2C1CC1	-	ATCC 6538P	MIC	-	>100 µg/mL